# For at least one entry, the source does not settle the construct or the ends of the probe. The comparison behind a weaker result is the experiment's own reference, which may not be listed here. Where a protein sequence is shown, tags need not be part of it.
# Biological target: T1, PefR (Gbs1402) (Streptococcus agalactiae NEM316) (UniProt Q8E4J9)
# T1 sequence (looked up): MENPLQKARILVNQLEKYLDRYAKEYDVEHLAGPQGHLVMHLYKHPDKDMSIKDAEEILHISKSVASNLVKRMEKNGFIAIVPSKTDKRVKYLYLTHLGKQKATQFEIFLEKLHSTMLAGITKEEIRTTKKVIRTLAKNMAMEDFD
# Experiment: EMSA
# Conditions: 30 pmol PefR, 2 pmol DNA, EMSA: 5% glycerol, 20 mM Tris-HCl pH 8, 50 mM KCl, 0.2 mM MgCl2, 1 mM EDTA, 0.2 mM DTT, 0.3 uM BSA, 15 ul, 37 C 20 min, 8% PAGE in 1x TBE, ethidium bromide stain, recombinant protein, residues 1-146, probe letters rebuilt from the primers and the genome
Sequence,"binding result (PPIX, 240 pmol or 120 pmol (panel sides))","binding result (heme, increasing ratios)","binding result (PPIX, 120 pmol or 240 pmol (panel sides))"
GCGTAGAAGTCATTAAATGGAGAACGCTTTATTAGGAAAAATAGTGGGGAGATATTTTAGAAAAAGGAAATAATGATGTTTTGAAAAAAATAGTTTCTATGAGAATCTTTTTCTTGACAATAAAATTTAGCTATTATAAAATAGTTCTCACGATAACTAAAATAATGATTTTTTCAGAAAATAATATTATTTATTGATTAAAAAATCAAAAAATAACCTTATAAGACCTATTTGTTATTCTTAAAAGATATTAGTTAAAATCAGAAATAGAGATTGGAGATA (double strand) [pefAB promoter fragment (281 bp)],binds more weakly,binds more weakly,–
ATTTGTATTTTACTATCATTTACATTAAAAATCAATATAAATTTATAATTAAAAATATAAAAAGCGAACATATATTTTTAATATTAAAAAGTAAGCGAAATCATTTTTTATTTGACGAATGATAGGTTTTTTTTAGAAATATTAATGTAAAAATAGTTCTCACGGTAACTTTTAATTGACAATTAATAAAGGTTGTTTTAAAATAGTTCTCACGATAACTATTAAAGGAGTATTATTATGGAGAATC (double strand) [pefRCD promoter fragment (248 bp)],–,binds more weakly,binds more weakly
